Measured values from several laboratories, pooled; numbers as filed in NIAID ChemDB.

Common to all: enzyme or target tests; agent: HIV-1; target: Integrase

Two numbers with a dash give a range or band. Neighbouring rows are from separate reports. ICn: concentration for n% inhibition.

| structure | endpoint | method | value |
|---|---|---|---|
| Cc1cc(CNC(=O)c2nc3n(c(=O)c2O)CC2(C(C)O)CCC3(NC(=O)C(=O)N(C)C)CC2)ccc1F | Ki | radiometric | 0.000002 µM |
| COC(=O)N1CCC2(CC1)COCCn1c2nc(C(=O)NCc2ccc(F)cc2-n2ncnc2C)c(O)c1=O | Ki | binding / radiometric | 0.003–0.05 µM |
| CN(C)C(=O)c1cc(=O)c(O)c2n1CCN(Cc1ccc(Cl)c(Cl)c1)C2=O | IC50 | ELISA | 0.01–0.1 µM |
| CN(C)CC1c2nc(C(=O)NCc3ccc(F)cc3)c(O)c(=O)n2CCN1S(C)(=O)=O | IC50 | ELISA | <10 µM |
| Cc1cc(CNC(=O)c2nc3n(c(=O)c2O)CC2(CF)CCC3(N(C)C(=O)C(=O)N(C)C)CC2)ccc1F | Ki | radiometric | 0.0000024 µM |
| Cc1ncnn1-c1cc(F)ccc1CNC(=O)c1nc2n(c(=O)c1O)CCOCC21CCN(C(=O)N(C)C)CC1 | Ki | binding / radiometric | 0.003–0.05 µM |
| CN1CCn2c(nc(C(=O)NCc3ccc(F)cc3)c(O)c2=O)C(N(C)S(=O)(=O)N(C)C)C1 | IC50 | ELISA | <10 µM |
| O=C(NCc1ccc(F)cc1N1CCCCS1(=O)=O)c1nc2n(c(=O)c1O)CCCOC21CCN(C(=O)OCc2ccccc2)CC1 | Ki | binding / radiometric | 0.003–0.05 µM |
| O=C(Nc1cn2ccn(Cc3cccc(Cl)c3)c(=O)c2c(O)c1=O)c1ccco1 | IC50 | ELISA | <0.01 µM |
| CN(C)C(=O)C(=O)N(C)CC1c2nc(C(=O)NCc3ccc(F)cc3)c(O)c(=O)n2CCN1C | IC50 | ELISA | <10 µM |
| Cc1c(F)cc(Br)c(CNC(=O)c2nc3n(c(=O)c2O)CC2(F)CCC3(N(C)C(=O)C(=O)N(C)C)CC2)c1Br | Ki | radiometric | 0.0000052 µM |
| COC(=O)N1CCC2(CC1)OCCCn1c2nc(C(=O)NCc2ccc(F)cc2-n2ncnc2C)c(O)c1=O | Ki | binding / radiometric | 0.003–0.05 µM |
| O=c1c(-c2nccs2)cn2ccn(CCCc3c(F)cccc3Cl)c(=O)c2c1O | IC50 | ELISA | <0.01 µM |
| Cc1cc(CNC(=O)c2nc3n(c(=O)c2O)CC2(F)CCC3(NC(=O)c3cccn(C)c3=O)CC2)ccc1F | Ki | radiometric | 0.0000064 µM |
| Cc1cc(CNC(=O)c2nc3n(c(=O)c2O)CCN(C2CC2)CC3N(C)C(=O)C(=O)N(C)C)ccc1F | IC50 | ELISA | <10 µM |
| CN(C)C(=O)C(=O)NC12CCC(N3CCOCC3)(CC1)Cn1c2nc(C(=O)NCc2ccc(F)cc2)c(O)c1=O | Ki | radiometric | 0.000004 µM |
| Cn1cc2c(c(O)c1=O)C(=O)N(Cc1cccc(C(F)(F)F)c1)CC2 | IC50 | ELISA | 0.1–1 µM |
| Cc1nnc(C23CCC(NC(=O)C(=O)N(C)C)(CC2)c2nc(C(=O)NCc4ccc(F)c(C)c4)c(O)c(=O)n2C3)o1 | Ki | radiometric | 0.0000024 µM |
| Cc1ncnn1-c1cc(F)ccc1CNC(=O)c1nc2n(c(=O)c1O)CCOCC21CCN(C(=O)OCc2ccccc2)CC1 | Ki | binding / radiometric | 0.003–0.05 µM |

For reference, 2 entries again:

| structure | endpoint | method | value |
|---|---|---|---|
| CN(C)C(=O)C(=O)N(C)CC1c2nc(C(=O)NCc3ccc(F)cc3)c(O)c(=O)n2CCN1C | IC50 | ELISA | <10 µM |
| Cc1ncnn1-c1cc(F)ccc1CNC(=O)c1nc2n(c(=O)c1O)CCOCC21CCN(C(=O)N(C)C)CC1 | Ki | binding / radiometric | 0.003–0.05 µM |